The record followed here is the supplement of paper PMC9931576.

Human monoclonal antibodies against the spike receptor-binding domain (heavy:light variable regions). IC50 against pseudoviruses bearing the spike of naturally observed variants; lower = stronger; >10 µg/ml means not reached at the top dose. No active / inactive call. The stated detection limit is 0.0005 µg/ml; values near or below 0.001 µg/ml lie at the floor of the assay. Some results are limits rather than exact numbers.

The labels stand for the following.
B1: BD56-175 (protein)
chain 1: EVQLVQSGAEVKKPGESLRISCKGSGYSFTSSWIGWVRQMPGKGLEWMGIIYPHDSDTRYSPSFQGQVTISADKAISTAYLQWSSLKASDTAMYYCARDPGGCSSGSCYGLDVWGQGTTVTVSS
chain 2: QSVLTQPPSASGTPGQRVTISCSGSSSNIGSHAVNWYRQLPGTAPILLLYNNNQRPSGVPDRFSGSKSGTLASLAISGLQSEDEADYYCAAWDDSLIGSYVFGTGTKVTAL
B2: BD56-182 (protein)
chain 1: QVQLQESGPGLVKPSETLSLTCTVSGGSINYYYWSWIRQPPGKGLEWIGYIFYTGTTNYNPSLKSRVTISVDTSKNQFSLRLSSVTAADTAVYYCARQREEYYFDISGYHLDCWGQGTLVTVSS
chain 2: DIQMTQSPSSLSASVGDRVTITCQASQDIRNYLNWYQQKPGKAPKLLIYDASNLETGVPSRFSGSRSGTDFTFTVSSLQPEDIATYYCQQYDNLLGITFGQGTRLEIK
B3: BD56-171 (protein)
chain 1: QVQVVESGGGVVQPGRSLRLSCAASGFTFSSYAMHWVRQAPGKGLEWVAVVLYDGSNKYYADSVQGRFTISRDNSRNALFLQMNSLRAEDTAVYYCARDRSPQQLLDDYYYYYGMDVWGQGTTVTVSS
chain 2: SYELTQPPSVSVSPGQTASITCSGPKLGDKYACWYQQKPGQSPVLIIYQDDRRPSGIPERFSGSNSGNTATLTISGTQTMDEADYFCQAWDSSTPYVFGTGTKVTVL
B4: BD56-170 (protein)
chain 1: QVQLVESGGGVVQPGRSLRLSCAASGFTFNTYGMHWVRQAPGKGLEWVTLIWYDGSNKYYADSVKGRFTISRDNSKNTLYLQMNTLRAEDTAIYYCARDQASYHTVAGTSPYFDYWGQGTLVTVSS
chain 2: SYELTQPPSVSVSPGQTARITCSRDTLPKQYASWYQQKPGQAPVLVIYKDSERPSGIPERFSGSSSGTTVTLTISGVQAEDEADYYCQSTDSSATYAVFGGGTQLTVL
B5: BD56-180 (protein)
chain 1: EVQLVESGGGLVQPGRSLRLSCTGSGFIFGVYAVSWVRQAPGKGLEWVGFIRSKAYGGAIEYAASVKGRFTISRDDSKNIAYLQMNSLKTEDTAVYYCVRVDQWLSSPQTHGDFFDYWGQGTLVTVSS
chain 2: QSALTQPASVSGSPGQSITISCTGTSSDVGGYDYVSWYQQHPGKAPKLLIYDVTNRPSGVSNRFSGSKSGSTASLTISGLQAEDEAEYYCSSYRTSTIFVFGSGTKVTVL
B6: BD56-164 (protein)
chain 1: EVQLVESGGGLVQPGGSLRLSCAASGFTFSSYWMTWVRQAPGKGLEWVANIKQDGSDKYYVDSVKGRFTISRDNAKNSLYLQMNSLRAEDTAVYYCARDTYFYDSSAYFINWFDPWGQGTLVTVSS
chain 2: QSVLTQPPSVSGAPGQRVTISCTGSTSNIGAGYDVHWYQQLPGTAPKLLIYNNNNRPSGVPDRFSGSKSGTSASLAITGLQAEDEADYYCQSSDSSLSTSYVFGTGTKVTVL
B7: BD56-186 (protein)
chain 1: EVQLVESGGGLVKPRGSLRLSCAASGFTFSSAWMNWVRQAPGKGLEWVGRIKSEIDGGTTDYAAPVKGRFTISRDDSKNTLYLQMNSLKTEDTAVYYCTVSDVIRFYDYGMDVWGQGTTVTVSS
chain 2: DIQMTQSPSTLSASVGDRVTITCRASQSISRWLAWYQQKPGKAPKLLIYKASSLQSGVPSRFSGSGSGTEFTLTISSLQPDDFATYYCQQYNSYLYTFGQGTKLEIK
B8: BD56-168 (protein)
chain 1: QVQLVQSGAEVKKPGASVKVSCKASGYTFTSYGISWVRQAPGQGLEWMGWINTYNANTNYAQKFQDRVTLTTDTSTNTVYMELRSLRSDDTAVYYCARVEGFYSDSSVYFFDYWGQGILVTVSS
chain 2: EIVMTQSPATLSVSPGERATLSCRASQSVSTNVGWYQQKPGQAPRLLIYAASTRATGVPARFSGSGSGTEFTLTISSLQSEDFAVYYCQQYDNWPPSWTFGQGTKVEIK
B9: BD56-165 (protein)
chain 1: EVQLVESGGGWVQRGGSLRLSCAASGFTYSSYSLNWVRQAPGKGLEWVSSISPSSDIKYYADSVKGRFTISRDNARNSLYLQMNSLRDEDTAVYFCARDSKTYTSGPSAEWFDPWGQGTLVTVSS
chain 2: SYVLTQPPSVSVAPGKTARITCGGDSIGSKSVHWYQQKPGQAPIVVIYYDSDRPSGIPERFSGSNSGNTATLAISRVEAGDEADYYCQVWDTGVVFGGGTKLTVL
B10: BD56-193 (protein)
chain 1: EVQLVQSGAEVKKPGESLRISCKGSGYMFTRHWIGWVRQMPGKGLEWMGIIYPGDSDTRYSPSFQGHVTISVDKSTSTAYLQWSSLKASDTAMYYCARHETIFGVVTPIDYWGQGTLVTVSS
chain 2: QPVLTQPPSSSASPGESARLTCTLPSDISVGSYNIYWYQQKPGSPPRYLQSYLDSDKGQGSGVPSRFSVSKDASANTGILLISGLQSEDEADYYCMTWPSHSYVVFGGGTKLTVL
B11: BD56-190 (protein)
chain 1: QVQLQESGPGLVKPSQTLSLICTVSGGSISSSGYYWSWIRQHPGKGLEWIGYIYYSGTTYYHPSLKSRVFMSLDTSKNQFSLKLSSVTAADTAVYYCAGNDGDPDYFDYWGLGTLVTVSS
chain 2: EIVLIQSPATLSLSPGERATLSCRASQSVNSYLAWYQQKPGQAPSLLIYDASYRATGIPARFSGSGSGTDFTLTISSLEPEDFAVYYCQQRFSWPPTFGQGTRLEIK
B12: BD56-156 (protein)
chain 1: EVQLVESGGGLVQPGGSLRLSCAASGFTFSNYDMHWVRQRPGKGLEWVSTIGTGGDTYYPGSVKGRFTISRENAKKSLFLQMNSLRAGDTAVYYCARVAYYSDSSPYQYWYFDLWGRGTLVTVSS
chain 2: DIQVTQSPSSLSASVGDRVTITCRASHNIRSYLNWYQQKPGKAPKLLIYAASTLQSGVPSRFSGSGSGTDFTLAITGLQPEDFATYYCQQSYSAPPWTFGQGTKVDIK

One assay concerns the target SARS-CoV-2 Omicron BA.1 spike pseudovirus. The assay can be described thus: pseudovirus neutralization IC50; higher = weaker neutralization. The procedure: (§1)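 Single-round VSV luciferase pseudovirus mixed with antibody dilutions for 1 h and put on Huh-7 cells for about a day; IC50 from the dose curve.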
Consider B1, for which the “pseudovirus neutralization IC50” value came out at 3.97 µg/mL.
Same read-out and setting: for B2 the value was greater than 10 µg/mL; for B3, 0.97 µg/mL.
Take B4: the “pseudovirus neutralization IC50” value is 1.72 µg/mL.
On the same count and under the same terms, for B5 the value was greater than 10 µg/mL.
Turning to B6, the “pseudovirus neutralization IC50” value was greater than 10 µg/mL.
The same measure, in the same setting: for B7 the value was 3.04 µg/mL; for B8, 3.12 µg/mL; for B9, greater than 10 µg/mL.
Consider B10, for which the “pseudovirus neutralization IC50” value was greater than 10 µg/mL.
For B11, the “pseudovirus neutralization IC50” value was greater than 10 µg/mL.
For B12, the “pseudovirus neutralization IC50” value is greater than 10 µg/mL.

A further assay addresses SARS-CoV-2 Omicron BA.2 spike pseudovirus. Described as above. Here is the method: as §1
B1: the “pseudovirus neutralization IC50” value is 2.56 µg/mL.
With B2, the “pseudovirus neutralization IC50” value is greater than 10 µg/mL.
As for B3, the “pseudovirus neutralization IC50” value worked out at 1.09 µg/mL.
Same read-out and setting: for B4 the value was 2.45 µg/mL; for B5, greater than 10 µg/mL; for B6, greater than 10 µg/mL.
Turning to B7, the “pseudovirus neutralization IC50” value was determined as 3.04 µg/mL.
In the case of B8, the “pseudovirus neutralization IC50” value stood at 3.56 µg/mL.
Consider B9, for which the “pseudovirus neutralization IC50” value is greater than 10 µg/mL.
The same measure, in the same setting: for B10 the value was greater than 10 µg/mL; for B11, greater than 10 µg/mL.
On the same count and under the same terms, for B12 the value was greater than 10 µg/mL.

In another assay the target is SARS-CoV-2 Omicron BA.2.75 spike pseudovirus. The description is as above. The procedure:
as §1
Consider B1, for which the “pseudovirus neutralization IC50” value was found to be 4.23 µg/mL.
Still for that read-out and setting: for B2 the value was greater than 10 µg/mL; for B3, 0.904 µg/mL.
On to B4, for which the “pseudovirus neutralization IC50” value was found to be 2.7 µg/mL.
Still for that read-out and setting: for B5 the value was greater than 10 µg/mL; for B6, greater than 10 µg/mL; for B7, 3.69 µg/mL.
Regarding B8, the “pseudovirus neutralization IC50” value turned out to be 4.69 µg/mL.
The same measure, in the same setting: for B9 the value was greater than 10 µg/mL.
In the case of B10, the “pseudovirus neutralization IC50” value is greater than 10 µg/mL.
Take B11: the “pseudovirus neutralization IC50” value is greater than 10 µg/mL.
Same read-out and setting: for B12 the value was greater than 10 µg/mL.

The next assay deals with SARS-CoV-2 Omicron BA.5 spike pseudovirus. The assay is described as above. Here is the method: as §1
Take B1: the “pseudovirus neutralization IC50” value is 3.94 µg/mL.
For B2, the “pseudovirus neutralization IC50” value is greater than 10 µg/mL.
For B3, the “pseudovirus neutralization IC50” value stood at 0.824 µg/mL.
Same read-out and setting: for B4 the value was 2.52 µg/mL; for B5, greater than 10 µg/mL; for B6, greater than 10 µg/mL.
Same read-out and setting: for B7 the value was 3.55 µg/mL; for B8, 2.9 µg/mL; for B9, greater than 10 µg/mL.
Still for that read-out and setting: for B10 the value was greater than 10 µg/mL.
Consider B11, for which the “pseudovirus neutralization IC50” value was greater than 10 µg/mL.
The same measure, in the same setting: for B12 the value was greater than 10 µg/mL.

In another assay the target is SARS-CoV-2 Omicron BQ.1.1 spike pseudovirus. Described as above. The procedure:
as §1
For B1, the “pseudovirus neutralization IC50” value is 6.33 µg/mL.
Same read-out and setting: for B2 the value was greater than 10 µg/mL; for B3, 0.786 µg/mL; for B4, 2.43 µg/mL.
For B5, the “pseudovirus neutralization IC50” value is greater than 10 µg/mL.
The same measure, in the same setting: for B6 the value was greater than 10 µg/mL; for B7, greater than 10 µg/mL.
Take B8: the “pseudovirus neutralization IC50” value was 2.46 µg/mL.
For B9, the “pseudovirus neutralization IC50” value was greater than 10 µg/mL.
On the same count and under the same terms, for B10 the value was greater than 10 µg/mL; for B11, greater than 10 µg/mL; for B12, greater than 10 µg/mL.

For a further assay, the target named is SARS-CoV-2 Omicron XBB spike pseudovirus. The assay is described as above. The procedure: as §1
Consider B1, for which the “pseudovirus neutralization IC50” value is 7.52 µg/mL.
For the molecule B2, the “pseudovirus neutralization IC50” value was greater than 10 µg/mL.
For the molecule B3, the “pseudovirus neutralization IC50” value stood at 1.14 µg/mL.
Take B4: the “pseudovirus neutralization IC50” value is 3.06 µg/mL.
Same read-out and setting: for B5 the value was greater than 10 µg/mL; for B6, greater than 10 µg/mL.
Turning to B7, the “pseudovirus neutralization IC50” value was greater than 10 µg/mL.
In the case of B8, the “pseudovirus neutralization IC50” value came out at 3.57 µg/mL.
As for B9, the “pseudovirus neutralization IC50” value was greater than 10 µg/mL.
The same measure, in the same setting: for B10 the value was greater than 10 µg/mL.
As to B11, the “pseudovirus neutralization IC50” value is greater than 10 µg/mL.
Regarding B12, the “pseudovirus neutralization IC50” value was greater than 10 µg/mL.

The next assay addresses SARS-CoV-2 early D614G spike pseudovirus. The assay is described as above. The procedure:
as §1
As to B1, the “pseudovirus neutralization IC50” value was greater than 10 µg/mL.
On the same count and under the same terms, for B2 the value was greater than 10 µg/mL; for B3, 0.98 µg/mL.
The same measure, in the same setting: for B4 the value was 2.36 µg/mL; for B5, greater than 10 µg/mL.
With B6, the “pseudovirus neutralization IC50” value was greater than 10 µg/mL.
The same measure, in the same setting: for B7 the value was greater than 10 µg/mL.
The same measure, in the same setting: for B8 the value was greater than 10 µg/mL.
On the same count and under the same terms, for B9 the value was greater than 10 µg/mL; for B10, greater than 10 µg/mL.
For the molecule B11, the “pseudovirus neutralization IC50” value is greater than 10 µg/mL.
As to B12, the “pseudovirus neutralization IC50” value is greater than 10 µg/mL.
